Results of unrelated studies side by side (data: NIAID ChemDB).

All rows: tests in culture

Blank or dashed fields: not listed here.

structure | agent | strain or isolate | cells | method | measure | dose | value
O=S(=O)([O-])c1ccc(O)cc1 | Rhinovirus |  | Human embryonic lung cells | cytopathic effect | inhibition | 5 µg/mL | 10%
Nc1nc2c(ncn2COCCO)c(=O)[nH]1 | Varicella zoster virus | Kawaguchi | HELF | plaque count | inhibition | 10 µg/mL | 100%
Oc1ccccc1N=Cc1ccc2c(c1)OCO2 | Cryptococcus gattii | 23/10993 |  |  | MIC99 |  | 4 µg/mL
C=CCc1ccc(OC)c(OC)c1 | Candida parapsilosis | 218 |  | turbidity | MIC90 |  | 350 µg/mL
CCOC(=O)c1cnc(NCCCCNc2ccnc3cc(Cl)ccc23)nc1C | Cryptococcus gattii | ATCC 24065 |  |  | MIC99 |  | 8 µg/mL
COc1ccc(CNC(=O)c2c3n(c(=O)n2-c2ccccc2)CCN(C(=O)c2ccc(Br)c(Cl)c2)C3)cc1OC | Hepatitis B virus |  | HepG2.117 | PCR | EC50 |  | 0.1–0.5 µM
Cc1nc(NCCCCNc2ccnc3cc(Cl)ccc23)nc(-c2ccccc2)c1C(=O)OC(C)C | Cryptococcus gattii | ATCC 24065 |  |  | MIC99 |  | 8 µg/mL
O=C(NCc1ccccc1)c1c2n(c(=O)n1-c1ccc(N3CC(F)(F)C3)cc1)CCN(C(=O)c1ccc(Br)c(Cl)c1)C2 | Hepatitis B virus |  | HepG2.117 | PCR | EC50 |  | 0.1–0.5 µM
CCOC(=O)c1ccc(OCCC2CCN(c3ccc(C)nn3)CC2)cc1 | Rhinovirus | FO2-2547 (ICAM-1 receptor group 70) | KB | neutral red | EC50 |  | 0.197 µM
O=C(Nc1c(S(=O)(=O)[O-])cc2cc(S(=O)(=O)[O-])cc(O)c2c1O)c1ccccc1 | Adenovirus | TYPE 3 | Human embryonic lung cells | cytopathic effect | inhibition | 50 µg/mL | 90%
CCOC(=O)/C=C/[C@H](C[C@@H]1CCNC1=O)NC(=O)[C@@H](CC(=O)[C@@H](NC(=O)c1cc(C)on1)C(C)C)Cc1ccc(F)cc1 | Rhinovirus | Isolate 9 | OHIO HELA-I | cytopathic effect / visual reading | EC50 |  | 0.01 µg/mL
C[C@H](NC(=O)c1c2n(c(=O)n1-c1ccc(OCC(F)(F)F)cc1)CCN(C(=O)c1ccc(Br)c(Cl)c1)C2)c1ccc(OC(F)(F)F)cc1F | Hepatitis B virus |  | HepG2.117 | PCR | EC50 |  | 0.5–5 µM
CCOC(=O)c1c(C)nc(NCCCCNc2ccnc3cc(Cl)ccc23)nc1-c1ccccc1 | Cryptococcus neoformans | 27JF |  |  | MIC99 |  | 4 µg/mL
Cc1cn([C@@H]2O[C@H](CO)[C@@H](O)[C@@H]2O)c(=O)[nH]c1=O | Varicella zoster virus | OKA | HELF | plaque count | inhibition | 0.01 µg/mL | 0%
COc1ccc(-n2c(C(=O)NCc3ccccc3)c3n(c2=O)CCN(C(=O)c2ccc(Cl)c(Cl)c2)C3)cn1 | Hepatitis B virus |  | HepG2.117 | PCR | EC50 |  | >5 µM
CCOC(=O)c1c(C)nc(NCCCCNc2ccnc3cc(Cl)ccc23)nc1-c1ccccc1[N+](=O)[O-] | Cryptococcus gattii | L24/01 |  |  | MIC99 |  | 8 µg/mL
CCC(CC)O[C@@H]1C=C(C(=O)O)C[C@H](N)[C@H]1NC(C)=O | Influenza A virus | H1N1 A/Bayern/09/95 | MDCK |  | EC50 |  | 2.7 µM
O=C(Nc1ccc(S(=O)(=O)[O-])c2cccc(S(=O)(=O)[O-])c12)c1ccccc1 | Adenovirus | TYPE 3 | Human amnion AV3 cells | cytopathic effect | inhibition | 10 µg/mL | 0%
O=c1[nH]c(=O)n([C@@H]2O[C@H](CO)[C@@H](O)[C@@H]2O)cc1/C=C/Cl | Varicella zoster virus | YS | HELF | plaque count | inhibition | 0.0001 µg/mL | 0%
O=C(O)c1ccc(S(=O)(=O)[O-])cc1C(=O)O | Adenovirus | TYPE 3 | Human embryonic lung cells | cytopathic effect | inhibition | 5 µg/mL | 0%
Oc1ccccc1N=Cc1ccc(O)c(O)c1O | Cryptococcus gattii | ATCC 24065 |  |  | MIC99 |  | 11.3 µg/mL
O=c1[nH]c(=O)n([C@H]2C[C@H](O)[C@@H](CO)O2)cc1/C=C/Br | Varicella zoster virus | KANNO | HELF | plaque count | inhibition | 0.01 µg/mL | 70%
O=S(=O)(O)c1ccc2cc(O)c(S(=O)(=O)O)cc2c1 | Adenovirus | TYPE 3 | Human amnion AV3 cells | cytopathic effect | inhibition | 5 µg/mL | 0%
O=c1[nH]c(=O)n([C@@H]2O[C@H](CO)[C@@H](O)[C@@H]2O)cc1/C=C/Br | Varicella zoster virus | Asahikawa | HELF | plaque count | inhibition | 0.001 µg/mL | 96%
Nc1ccc2c(O)cc(S(=O)(=O)[O-])cc2c1S(=O)(=O)[O-] | Herpes simplex virus |  | Human conjunctiva cells | cytopathic effect | inhibition | 50 µg/mL | 0%

Repeating the final 3 entries:

O=S(=O)(O)c1ccc2cc(O)c(S(=O)(=O)O)cc2c1 ; agent: Adenovirus ; strain or isolate: TYPE 3 ; cells: Human amnion AV3 cells ; method: cytopathic effect ; measure: inhibition ; dose: 5 µg/mL ; value: 0%
O=c1[nH]c(=O)n([C@@H]2O[C@H](CO)[C@@H](O)[C@@H]2O)cc1/C=C/Br ; agent: Varicella zoster virus ; strain or isolate: Asahikawa ; cells: HELF ; method: plaque count ; measure: inhibition ; dose: 0.001 µg/mL ; value: 96%
Nc1ccc2c(O)cc(S(=O)(=O)[O-])cc2c1S(=O)(=O)[O-] ; agent: Herpes simplex virus ; cells: Human conjunctiva cells ; method: cytopathic effect ; measure: inhibition ; dose: 50 µg/mL ; value: 0%

Two numbers with a dash give a range or band. ECn is the concentration giving n% inhibition of infection, replication or growth. Percent inhibition refers to the dose given; in toxicity tests it is the harm to the cells. A number after MIC or MFC names an inhibition level or a share of isolates. Lines come from different laboratories, so protocols vary.